Anti-infective test results gathered from many reports (values: NIAID ChemDB through PubChem).

Shared fields: growth or infection tests; agent: HIV-1; read-out: EC50

Conditions beyond the fields shown may differ between rows.

CC(C)(C)NC(=O)c1cccc(CN2C(=O)N(Cc3cccc(N)c3)[C@H](Cc3ccccc3)[C@H](O)[C@@H](O)[C@H]2Cc2ccccc2)c1 ; strain or isolate: RF ; cell line: MT-2 ; result: <0.1144 µM
O=c1[nH]c(=O)n(/C=C/P(=O)(O)O)cc1I ; strain or isolate: IIIB ; cell line: CEM + CEM-SS ; result: >200 µM
COc1cccc(CN2C(=O)N(Cc3cccc(C(=O)Nc4ccccn4)c3)[C@H](Cc3ccccc3)[C@H](O)[C@@H](O)[C@H]2Cc2ccccc2)c1 ; strain or isolate: RF ; cell line: MT-2 ; result: <0.03 µM
CN1C(=O)CN=C(c2ccc(Cl)cc2)c2cc(Cl)ccc21 ; strain or isolate: SF162 ; cell line: U1 ; result: 3 µM
CCOCn1c(Cc2ccccc2)c(C(C)C)c(=O)[nH]c1=O ; strain or isolate: IIIB ; cell line: CEM ; result: 0.00248 µM
O=C1N(Cc2cccc(Cn3cccn3)c2)[C@H](Cc2ccccc2)[C@H](O)[C@@H](O)[C@@H](Cc2ccccc2)N1Cc1ccc2[nH]ncc2c1 ; strain or isolate: RF ; cell line: MT-2 ; result: <0.046 µM
CCOP(=O)(/C=C\n1cc(CO)c(=O)[nH]c1=O)OCC ; strain or isolate: IIIB ; cell line: CEM + CEM-SS ; result: >200 µM
CC(C)=CCN1Cc2cc(Cl)cc3[nH]c(=S)n(c23)C[C@@H]1C ; strain or isolate: IIIB ; cell line: CEM ; result: 0.06 µM
Cc1ccnc2c1NC(=O)c1cccnc1N2C1CC1 ; cell line: MT-4 ; mutations: RT-K70R K103N ; result: <3 µM
CCc1c(O)cccc1C(=O)N[C@@H](Cc1ccccc1)[C@H](O)C(=O)N1CSC(C)(C)[C@H]1C(=O)NCc1ccccc1C ; strain or isolate: IIIB ; cell line: MT-4 ; result: 0.18 µM
CC(=O)Oc1ccc(/C=C/C(=O)O[C@@H](C(=O)O)[C@@H](OC(=O)/C=C/c2ccc(OC(C)=O)c(OC(C)=O)c2)C(=O)O)cc1OC(C)=O ; strain or isolate: NL4-3 ; cell line: MT-4 ; mutations: gp120 S158N N293D T370N T376N E377Q ; result: 8 µM
C=C(C)OC(=O)N1c2cc(Cl)ccc2NC(=S)C1(C)C ; strain or isolate: IIIB ; cell line: CEM ; result: 0.0013 µM
Nc1nc(N)c2ncn([C@H]3C=C[C@@H](OCP(=O)(O)O)O3)c2n1 ; cell line: MT-4 ; result: 82.5 µM
O=C(O)C(=O)CC(=O)c1cccn1CCCc1ccccc1 ; result: 15 µM
O=c1[nH]c(=O)n(/C=C\P(=O)(O)O)cc1F ; strain or isolate: IIIB ; cell line: CEM + CEM-SS ; result: >200 µM
Nc1ncnc2c([C@H]3CC[C@](/C=C/P(=O)(O)O)(C(F)(F)F)C3)c[nH]c12 ; strain or isolate: LAI ; cell line: PBMC ; result: 62.8 µM
Nc1cccc(CN2C(=O)N(Cc3cccc(C(=O)Nc4ncc[nH]4)c3)[C@H](Cc3ccccc3)[C@H](O)[C@@H](O)[C@H]2Cc2ccccc2)c1 ; strain or isolate: RF ; cell line: MT-2 ; result: <0.0262 µM
O=C1N(Cc2cccc(Cn3cncn3)c2)[C@H](Cc2ccccc2)[C@H](O)[C@@H](O)[C@@H](Cc2ccccc2)N1Cc1ccc2[nH]ncc2c1 ; strain or isolate: RF ; cell line: MT-2 ; result: <0.035 µM
c1ccc(CNCc2ccc(CN3CCCNCCNCCCNCC3)cc2)nc1 ; strain or isolate: NL4-3 ; result: 0.004 µg/mL
CNC(C)[C@H]1O[C@H](O[C@@H]2[C@@H](O)[C@H](O[C@@H]3OC[C@@](C)(O)[C@@H](NC)[C@@H]3O)[C@@H](NC(=O)[C@@H](N)CCCN=C(N)N)C[C@H]2NC(=O)[C@@H](N)CCCN=C(N)N)[C@H](NC(=O)[C@@H](N)CCCN=C(N)N)[C@@H](O)[C@@H]1O ; strain or isolate: NL4-3 ; cell line: MT-4 ; result: 15 µM
CCOP(=O)(/C=C/n1cc(CO)c(=O)[nH]c1=O)OCC ; strain or isolate: IIIB ; cell line: CEM + CEM-SS ; result: >200 µM
Cc1cc(Nc2cc(C(C)O)cc(C(C)O)c2)nc(N)[n+]1C ; strain or isolate: ADA ; result: >1 µM
Nc1nc(N)c2ncn([C@H]3CO[C@@H](CO)O3)c2n1 ; strain or isolate: IIIB X4 ; cell line: PBMC ; result: 1.93 µM
Cc1c(O)cccc1C(=O)N[C@@H](Cc1ccccc1)[C@H](O)C(=O)N1CS(=O)(=O)C[C@H]1C(=O)NC(C)(C)C ; strain or isolate: IIIB ; cell line: MT-4 ; result: 1.8 µM
Nc1ncnc2c1ncn2CCOCP(=O)(O)O ; strain or isolate: HE ; cell line: CEM ; result: 30 µM
COc1cccc(CN2C(=O)N(Cc3cccc(C(=O)Nc4ccc(C)cn4)c3)[C@H](Cc3ccccc3)[C@H](O)[C@@H](O)[C@H]2Cc2ccccc2)c1 ; strain or isolate: RF ; cell line: MT-2 ; result: <0.0416 µM
Cc1c(O)cccc1C(=O)N[C@@H](Cc1ccccc1)[C@H](O)C(=O)N1CSC(C)(C)[C@H]1C(=O)NC(C)(C)C ; strain or isolate: IIIB ; cell line: CEM + CEM-SS ; result: 0.02 µM
Cc1cn([C@H]2C[C@H](N=[N+]=[N-])[C@@H](CO)O2)c(=O)[nH]c1=O ; strain or isolate: JR-FL ; cell line: Macrophage ; result: <1 µM
O=c1ccn(/C=C\P(=O)(O)O)c(=O)[nH]1 ; strain or isolate: IIIB ; cell line: CEM + CEM-SS ; result: >200 µM
Cc1cn([C@@H]2O[C@H](CO[Si](C)(C)C(C)(C)C)[C@]3(C=CS(=O)(=O)O3)[C@H]2O[Si](C)(C)C(C)(C)C)c(=O)n(C)c1=O ; cell line: MT-4 ; result: 0.53 µM
Cc1cc(S(N)(=O)=O)ccc1NC(=O)COc1ccccc1C(=O)c1cc(Cl)cc(C#N)c1 ; strain or isolate: BaL ; result: <0.002 µM
Cc1cccc2c1OP(=O)(OC[C@@H]1C=C[C@H](n3cnc4c(=O)[nH]cnc43)O1)OC2 ; cell line: CEM + CEM/0 ; result: 5.33 µM
Cc1cccc(C)c1OCC(=O)N[C@@H](Cc1ccccc1)[C@H](O)C(=O)N1CSC(C)(C)[C@H]1C(=O)NC(C)(C)C ; cell line: MT-4 ; result: 1.73 µM
Cc1ccc(NC(=O)c2cccc(CN3C(=O)N(Cc4cccc(N)c4)[C@H](Cc4ccccc4)[C@H](O)[C@@H](O)[C@H]3Cc3ccccc3)c2)nc1 ; strain or isolate: RF ; cell line: MT-2 ; result: <0.0165 µM
Nc1ccc(CN2C(=O)N(Cc3ccc4[nH]ncc4c3)[C@H](Cc3ccccc3)[C@H](O)[C@@H](O)[C@H]2Cc2ccccc2)cc1F ; strain or isolate: RF ; cell line: MT-2 ; result: <0.007 µM
CCc1c(O)cccc1C(=O)N[C@@H](Cc1ccccc1)[C@H](O)C(=O)N1CSC(C)(C)[C@H]1C(=O)NC(C)(C)C ; strain or isolate: IIIB ; cell line: MT-4 ; result: 0.54 µM
Cc1cn([C@H]2C[C@H](N=[N+]=[N-])[C@@H](CO)O2)c(=O)[nH]c1=O ; strain or isolate: RF ; cell line: MT-4 ; result: 0.055 µM
Nc1ncnc2c([C@H]3CC[C@](CCP(=O)(O)O)(C(F)(F)F)C3)c[nH]c12 ; strain or isolate: LAI ; cell line: PBMC ; result: 29.7 µM
CCc1c(O)cccc1C(=O)N[C@@H](Cc1ccccc1)[C@H](O)C(=O)N1CSC[C@H]1C(=O)NCc1ccccc1C ; strain or isolate: IIIB ; cell line: MT-4 ; result: 4.15 µM
C=C(COCP(=O)(O)O)Cn1cnc2c(=O)[nH]c(N)nc21 ; strain or isolate: HE ; cell line: MT-4 ; result: 17.7 µM
O=C(Nc1cnccn1)c1cccc(CN2C(=O)N(Cc3cccc(C(=O)Nc4cnccn4)c3)[C@H](Cc3ccccc3)[C@H](O)[C@@H](O)[C@H]2Cc2ccccc2)c1 ; strain or isolate: RF ; cell line: MT-2 ; result: <0.0035 µM
Cc1ccccc1CNC(=O)[C@@H]1CSCN1C(=O)[C@@H](O)[C@H](Cc1ccccc1)NC(=O)c1cccc(O)c1C ; strain or isolate: IIIB ; cell line: MT-4 ; result: 5.35 µM
CNc1cc(CN2C(=O)N(Cc3ccc4[nH]ncc4c3)[C@H](Cc3ccccc3)[C@H](O)[C@@H](O)[C@H]2Cc2ccccc2)ccc1F ; strain or isolate: RF ; cell line: MT-2 ; result: <0.007 µM

Repeating the final 5 entries:

compound | strain or isolate | cell line | mutations | result
CCc1c(O)cccc1C(=O)N[C@@H](Cc1ccccc1)[C@H](O)C(=O)N1CSC[C@H]1C(=O)NCc1ccccc1C | IIIB | MT-4 |  | 4.15 µM
C=C(COCP(=O)(O)O)Cn1cnc2c(=O)[nH]c(N)nc21 | HE | MT-4 |  | 17.7 µM
O=C(Nc1cnccn1)c1cccc(CN2C(=O)N(Cc3cccc(C(=O)Nc4cnccn4)c3)[C@H](Cc3ccccc3)[C@H](O)[C@@H](O)[C@H]2Cc2ccccc2)c1 | RF | MT-2 |  | <0.0035 µM
Cc1ccccc1CNC(=O)[C@@H]1CSCN1C(=O)[C@@H](O)[C@H](Cc1ccccc1)NC(=O)c1cccc(O)c1C | IIIB | MT-4 |  | 5.35 µM
CNc1cc(CN2C(=O)N(Cc3ccc4[nH]ncc4c3)[C@H](Cc3ccccc3)[C@H](O)[C@@H](O)[C@H]2Cc2ccccc2)ccc1F | RF | MT-2 |  | <0.007 µM

An empty or dashed field is not shown. ECn is the concentration giving n% inhibition of infection, replication or growth.